A mixed list of measured activities; the numbers were collected in NIAID ChemDB.

Common to all: host cell toxicity; cell line: HepG2.2.15; measure: CC50

Rows are shuffled and stem from different studies. CCn: concentration that lowers growth or viability of the cells by n%.

smiles | value
[N-]=[N+]=N[C@H]1C[C@H](n2cc(Cl)c(=O)[nH]c2=O)O[C@@H]1CO | 332 µM
Nc1ccn([C@@H]2CC[C@H](CO)O2)c(=O)n1 | 219 µM
CC(=O)[C@]1(O)CC[C@@]2(O)[C@]1(C)[C@H](OC(=O)/C=C(\C)C(C)C)CC1[C@@]3(C)CC[C@H](OC(=O)CN(C)C)CC3=CC[C@]12O | 3.6 µM
Nc1nc(=O)c2ncn([C@@H]3O[C@H](CO)C[C@H]3O)c2c(=O)[nH]1 | >170 µM
Nc1nc(=O)n([C@H]2C[C@H](F)[C@@H](CO)O2)cc1Cl | 338 µM
O=C(C=Cc1ccc(O)c(O)c1)O[C@@H]1C[C@](O)(C(=O)O)C[C@@H](O)[C@H]1O | >1380 µM
O=c1ccn([C@H]2CC[C@@H](CO)O2)c(=O)[nH]1 | 53 µM
CCCCCCCCCCCCNc1nc(=O)c2ncn([C@@H]3O[C@H](CO)[C@@H](O)[C@H]3O)c2c(=O)[nH]1 | 88 µM
C[C@H]1O[C@@H](O[C@H]2CC[C@@]3(C)[C@@H](CC[C@]4(C)[C@@H]3C=C[C@]35OC[C@@]6(CCC(C)(C)C[C@H]63)[C@H](O)C[C@]54C)[C@]2(C)CO)[C@H](O)[C@@H](O[C@@H]2O[C@H](CO)[C@@H](O)[C@H](O)[C@H]2O)[C@H]1O | 10 µg/mL
Nc1nc(=O)c2ncn(COCCOCP)c2c(=O)[nH]1 | >100 µM
O=c1cc(-c2ccc(O)c(-c3c(O)cc4oc(-c5ccc(O)cc5)cc(=O)c4c3O)c2)oc2cc(O)cc(O)c12 | >38 µM
Cc1cn([C@H]2C[C@H](F)[C@@H](CO)O2)c(=O)[nH]c1=O | 361 µM
O=c1[nH]cc(F)c(=O)[nH]1 | 10 µg/mL
Nc1nc(=O)n([C@@H]2CS[C@H](CO)O2)cc1F | 292 µM
[N-]=[N+]=N[C@H]1C[C@H](n2ccc(N)nc2=O)O[C@@H]1CO | 357 µM
Nc1ccn([C@H]2CC[C@@H](CO)O2)c(=O)n1 | 39 µM
Cc1cn([C@H]2CC[C@@H](CO)O2)c(=O)[nH]c1=O | 82 µM
Cc1cn([C@H]2C[C@H](OP([O-])(=S)OC[C@H]3O[C@@H](n4cnc5c(N)ncnc54)C[C@@H]3O)[C@@H](COP([O-])(=S)O[C@H]3C[C@H](n4ccc(=O)[nH]c4=O)O[C@@H]3CO)O2)c(=O)[nH]c1=O | >300 µM

The first 3 rows once more:

smiles	value
[N-]=[N+]=N[C@H]1C[C@H](n2cc(Cl)c(=O)[nH]c2=O)O[C@@H]1CO	332 µM
Nc1ccn([C@@H]2CC[C@H](CO)O2)c(=O)n1	219 µM
CC(=O)[C@]1(O)CC[C@@]2(O)[C@]1(C)[C@H](OC(=O)/C=C(\C)C(C)C)CC1[C@@]3(C)CC[C@H](OC(=O)CN(C)C)CC3=CC[C@]12O	3.6 µM